# Potato spindle tuber viroid, loop 6: variant abundance in plants

Reference: Wu et al. 2024, doi:10.1371/journal.ppat.1012142.

Region: loop 6 of PSTVd (intermediate strain), upper and lower strand joined, each 5' to 3', the first 5 letters being the upper strand, closing pairs included. Wild type: UGACCGCGAG. Varied positions (N): UNNNCGNNNG.

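A pool of all variants was put on leaves of three Nicotiana benthamiana plants. Progeny were sequenced from the inoculated region (day 5), the margin of the inoculated leaf (day 10) and systemic leaves (day 12).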

Numbers give reads per thousand; 0 = not seen among the reads, higher = more abundant. Each site shows the three plants. "Pool" is the share in the plasmid pool used as inoculum, on the same scale. The inoculated region was read from the minus strand, the other sites from the plus strand.

For UGUCCGCACG (pool 0.275) the result was inoculated region 0.191 / 0.0719 / 0.111; leaf margin 0 / 0 / 0.0232; systemic leaves 0 / 0 / 0.
For UUAGCGCGUG (pool 0.222) the result was inoculated region 0.0521 / 0.0719 / 0.0738; leaf margin 0 / 0 / 0; systemic leaves 0 / 0 / 0.
For UCAACGCCAG (pool 0.183) the result was inoculated region 0.747 / 0.701 / 0.479; leaf margin 0.166 / 0.126 / 0; systemic leaves 0 / 0 / 0.
For UAGGCGAGAG (pool 0.209) the result was inoculated region 0.156 / 0.0719 / 0.129; leaf margin 0.0276 / 0 / 0; systemic leaves 0 / 0 / 0.
For UCUACGCAAG (pool 0.131) the result was inoculated region 0.0869 / 0.198 / 0.111; leaf margin 0.359 / 0 / 0; systemic leaves 0 / 0 / 0.
For UAUGCGGGUG (pool 0.275) the result was inoculated region 0.104 / 0.0539 / 0.0738; leaf margin 0 / 0 / 0; systemic leaves 0 / 0 / 0.
For UGGCCGGAUG (pool 0.261) the result was inoculated region 0.174 / 0.0898 / 0.240; leaf margin 0.166 / 0 / 0; systemic leaves 0 / 0 / 0.
For UUCACGGUAG (pool 0.275) the result was inoculated region 0.695 / 0.683 / 0.350; leaf margin 0.0828 / 0.0757 / 0.0232; systemic leaves 0 / 0 / 0.
For UCGACGGGUG (pool 0.209) the result was inoculated region 0.0521 / 0.126 / 0.0738; leaf margin 0 / 0 / 0; systemic leaves 0 / 0 / 0.
For UUAUCGAGGG (pool 0.235) the result was inoculated region 0.0521 / 0.0898 / 0.0553; leaf margin 0 / 0 / 0; systemic leaves 0 / 0 / 0.0205.
For UCGUCGCUAG (pool 0.170) the result was inoculated region 0.0869 / 0.108 / 0.0922; leaf margin 0 / 0 / 0; systemic leaves 0 / 0 / 0.
For UUUACGGAAG (pool 0.144) the result was inoculated region 1.01 / 0.611 / 0.332; leaf margin 0.0828 / 0 / 0.0928; systemic leaves 0 / 0 / 0.
For UGCCCGAACG (pool 0.170) the result was inoculated region 0.122 / 0.0719 / 0.0369; leaf margin 0 / 0 / 0.0232; systemic leaves 0 / 0 / 0.
For UGUACGGAUG (pool 0.196) the result was inoculated region 0.139 / 0 / 0.0738; leaf margin 0.0276 / 0 / 0.0232; systemic leaves 0 / 0 / 0.
For UGCACGCAAG (pool 0.157) the result was inoculated region 0.660 / 0.521 / 0.572; leaf margin 0 / 0.0757 / 0.0696; systemic leaves 0 / 0 / 0.
For UCGGCGUUGG (pool 0.353) the result was inoculated region 0.174 / 0.0359 / 0.0553; leaf margin 0 / 0 / 0; systemic leaves 0 / 0 / 0.
For UUUGCGUCGG (pool 0.157) the result was inoculated region 0.0521 / 0.108 / 0.0738; leaf margin 0.0276 / 0 / 0; systemic leaves 0 / 0 / 0.0205.
For UCUCCGCUGG (pool 0.118) the result was inoculated region 0.0869 / 0.108 / 0.0738; leaf margin 0 / 0 / 0; systemic leaves 0 / 0 / 0.
For UGCGCGGCCG (pool 0.235) the result was inoculated region 0.0521 / 0.144 / 0.0738; leaf margin 0 / 0 / 0.0232; systemic leaves 0 / 0 / 0.
For UACGCGGCAG (pool 0.275) the result was inoculated region 0.156 / 0.144 / 0.0553; leaf margin 0 / 0 / 0; systemic leaves 0 / 0.0606 / 0.0410.
For UCGUCGUUAG (pool 0.405) the result was inoculated region 0.0521 / 0.144 / 0.0369; leaf margin 0.0276 / 0 / 0; systemic leaves 0 / 0 / 0.

With 36,220-57,551 reads a sample, very low values are single reads. Sequences that differ at fixed positions probably stem from PCR or sequencing errors, and defective variants can be carried along by functional ones. For reference, wild type rose from 20.7 per thousand in the pool to 195, 198, 203 (inoculated region), 629, 591, 734 (leaf margin) and 942, 870, 868 (systemic leaves).